From ChEMBL document CHEMBL3286361, “Design and discovery of flavonoid-based HIV-1 integrase inhibitors targeting both the active site and the interaction with LEDGF/p75” (Bioorg Med Chem, 2014)

Experiments:
[1] = target: T1, Human immunodeficiency virus type 1 integrase (Human immunodeficiency virus 1, UniProt Q7ZJM1); assay: Inhibition of recombinant HIV-1 integrase 3'-processing activity using 32P 5' end-labeled linear 21'mer as substrate preincubated for 30 mins prior to substrate challenge by phosphorimaging analysis
[2] = target: T1, Human immunodeficiency virus type 1 integrase; assay: Inhibition of His6-tagged HIV-1 integrase assessed as decrease in integrase-Flag-LEDGF/p75 interaction preincubated with enzyme for 30 mins followed by addition of Flag-LEDGF/p75 for 1 hr by AlphaScreen assay

IC50 [1]: 7.5 µM
IC50 [2]: 2.7 µM
SMILES: O=c1cc(-c2ccccc2)oc2cc(O)c(O)c(O)c12 [BAICALEIN]
